Anti-infective test results gathered from many reports (values: NIAID ChemDB through PubChem).

Shared fields: whole-cell or culture tests

Inhibition is in % at the dose shown (toxicity tests: loss of growth or viability).

smiles	organism	strain or isolate	mutations	cell line	read by	measure	dose	result
CCOP(=O)(Cn1cc(C2N=C3C(N)=NC=NC3N2C)nn1)OCC	HIV-2	ROD	-	CEM	-	inhibition	100 µM	0%
O=C1Nc2ccc(F)c(F)c2[C@@](/C=C/C2CC2)(C(F)(F)F)N1	HIV-1	-	RT-L100I	-	-	fold resistance	-	3.68
CCOc1nc(N)nc2ncc(-c3ccc(OC)c(OC)c3)nc12	HIV	IIIB	-	MT-4	-	EC50	-	>100 µM
N[C@@H](Cc1ccccc1)C(=O)C(F)(F)CN(Cc1ccccc1)S(=O)(=O)c1ccccc1	HIV-1	IIIB	-	CEM	p24	EC90	-	1 µM
Cc1nc(NC(=O)NCCc2ccccc2)sc1C	HIV-2	-	-	MT-4	RT activity	inhibition	0.1 µg/mL	1%
COc1ccc(S(=O)(=O)N(CC(C)C)C[C@@H](O)C[C@H](Cc2ccccc2)CN2CSCC2C(=O)NC(C)(C)C)cc1	HIV-1	IIIB	-	CEM	p24	EC90	-	1 µM
C/C=C/CSc1cc(NC(=S)c2ccsc2C)ccc1Cl	HIV-1	NL4-3	RT-K101E	CEM + CEM-SS	p24	fold resistance	-	12
O=C(NCCc1ccccc1)Nc1nc(C(F)(F)F)cs1	HIV-2	-	-	MT-4	RT activity	inhibition	0.1 µg/mL	56%
CCOP(=O)(OCC)C(O)Cn1cc(Cn2cnc3c(N)ncnc32)nn1	HIV-2	ROD	-	CEM	-	inhibition	100 µM	0%
COc1ccc(S(=O)(=O)N(CC(C)C)C[C@@H](O)CCN(CC2CCCC2)S(=O)(=O)CC2NC(=O)NC2=O)cc1	HIV-1	IIIB	-	CEM	p24	EC90	-	1 µM
O=C1Nc2ccc(Cl)cc2[C@@](/C=C/C2CC2)(C(F)(F)F)N1	HIV-1	-	RT-K103N	-	-	fold resistance	-	13.5
CC(=O)NC1C=CN(c2cn(C(O)CP(=O)(O)O)nn2)C(=O)N1	HIV-2	ROD	-	CEM	-	inhibition	100 µM	0%
O=C(O)c1cc(-n2cccc2)ccc1Cl	HIV-1	93IN101 R5 CLADE C	-	PBMC + MT-2	p24	EC90	-	39.91 µM
CCS(=O)(=O)Nc1cccc(-c2cnc3nc(N)nc(N4CCOCC4)c3n2)c1	HIV	IIIB	-	MT-4	-	EC50	-	17.8 µM
CCOP(=O)(CCCC(O)n1cc(N2C=CC(NC(C)=O)NC2=O)nn1)OCC	HIV-2	ROD	-	CEM	-	inhibition	100 µM	0%
Cc1cc2cn[nH]c2cc1NC(=O)COc1ccc(Cl)cc1C(=O)c1cccc(C#N)c1	HIV-1	HXB2	RT-Y188C	HeLa + HELA CD4+	β-galactosidase	fold resistance	-	~1
O=C1[C@@H](Cc2ccccc2)NC(=S)N1Cc1ccccc1	HIV-2	-	-	MT-4	RT activity	inhibition	10 µg/mL	59%
CC(C)CN(C[C@H](O)C[C@@H](CNC(C)(C)C)Cc1ccccc1)S(=O)(=O)c1ccccc1	HIV-1	IIIB	-	CEM	p24	EC90	-	1 µM
COc1ccc(-c2cnc3nc(N)nc(N4CCOCC4)c3n2)cc1OC	HIV	IIIB	-	MT-4	-	EC50	-	>100 µM
O=C(OC1COCOC1)N(Cc1ccccc1)CC(O)CN(CC1CCCC1)S(=O)(=O)c1ccccc1	HIV-1	IIIB	-	CEM	p24	EC90	-	1 µM
CCc1cc(C#N)cc(C(=O)c2cc(Cl)ccc2OCC(=O)Nc2ccc(S(N)(=O)=O)cc2C)c1	HIV-1	HXB2	RT-V108I	HeLa + HELA CD4+	β-galactosidase	fold resistance	-	~1
N#Cc1csc(NC(=O)NCCc2ccccc2)n1	HIV-2	-	-	MT-4	RT activity	inhibition	1 µg/mL	91%
Cc1cc(S(N)(=O)=O)ccc1NC(=O)COc1ccc(Cl)cc1C(=O)c1cc(Cl)cc(Cl)c1	HIV-1	HXB2 (RT-K103N Y181C) Recombinant	RT-K103N Y181C	HeLa + HELA CD4+	β-galactosidase	fold resistance	-	~1
O=C(NCCc1ccccc1)Nc1nc2c(Cl)cccc2s1	HIV-2	-	-	MT-4	RT activity	inhibition	100 µg/mL	93%
Cc1cc(C#N)cc(C(=O)c2cc(Cl)ccc2OCC(=O)Nc2ccc(S(N)(=O)=O)cc2C)c1	HIV-1	HXB2	RT-K103N V108I	HeLa + HELA CD4+	β-galactosidase	fold resistance	-	~1
CN1C(=O)[C@@H](Cc2ccccc2)NC1=S	HIV-2	-	-	MT-4	cytopathic effect / XTT	inhibition	10 µg/mL	63%
Nc1cccc(S(=O)(=O)N(CC(O)CN(NCc2ccccc2)C(=O)c2ccccc2)CC2CCCC2)c1	HIV-1	IIIB	-	CEM	p24	EC90	-	1 µM

A second listing of 2 rows from above:

smiles | organism | strain or isolate | mutations | cell line | read by | measure | dose | result
O=C1Nc2ccc(F)c(F)c2[C@@](/C=C/C2CC2)(C(F)(F)F)N1 | HIV-1 | - | RT-L100I | - | - | fold resistance | - | 3.68
CCOc1nc(N)nc2ncc(-c3ccc(OC)c(OC)c3)nc12 | HIV | IIIB | - | MT-4 | - | EC50 | - | >100 µM

Neighbouring rows are from separate reports. An empty or dashed field is not shown. Fold resistance: result on the changed form divided by that on wild type. ECn: concentration that inhibits the pathogen or its effect by n%.